From patent US20240426776A1, “RAPID DIFFERENTIATION OF ANTIBIOTIC-SUSCEPTIBLE AND -RESISTANT BACTERIA THROUGH MEDIATED EXTRACELLULAR ELECTRON TRANSFER” (priority 2021, published 2024)

System: Staphylococcus aureus (strains 29213 and 43300)
Test: READAS electrochemical current response with PMS mediator (ASIn)
Format: cell-based
Settings: for t6σ (READAS response time): tobramycin

For `NC[C@H]1O[C@H](O[C@H]2[C@H](O)[C@@H](O[C@H]3O[C@H](CO)[C@@H](O)[C@H](N)[C@H]3O)[C@H](N)C[C@@H]2N)[C@H](N)C[C@@H]1O` [Tobramycin, tobramycin], the “t6σ (READAS response time)” value (strain 29213 (susceptible)) was 12 to 21 min, the ASIn analysis time (strain 29213 (susceptible), tobramycin 10× (160 μg/mL)) was “(47-70 min)” and the “t6σ (READAS response time)” value (strain 43300 (resistant)) was 7 to 37 min. The ASIn analysis time (strain 43300 (resistant), tobramycin 10× (160 μg/mL)) was “(33-78 min)” and the “ASIn analysis time for classifying the strains as resistant or susceptible” value (strains 29213 and 43300, tobramycin 10× (160 μg/mL), oxacillin 20× (120 μg/mL)) was 33 to 78 min.
